The test system of the test is Legionella pneumophila. The experiment in a line: Chlorine disinfection of water containing viable Legionella, measured with Legionella dip-slides. The following applies: for % Disinfected: 0.17 mg/l free residual oxidant as Cl2, [(control − treatment)/control] × 100 from MFU/ml; for Legionella pneumophila (Ave MFU/ml) / Legionella pneumophila Ave (MFU/dip-slide): free residual oxidant 0.17 mg/l (ppm) as Cl2; for Legionella pneumophila (Ave MFU/ml): dip-slide absorbs 0.3 ml; for Legionella pneumophila Ave (MFU/dip-slide): total residual oxidant 0.25 mg/l.

As for Chlorine, for the setting “contact time 1 min”, the “% Disinfected” value is recorded as 33%, the “Legionella pneumophila (Ave MFU/ml)” value is on record as 8 MFU/ml and the “Legionella pneumophila Ave (MFU/dip-slide)” value is recorded as 3 MFU/dip-slide. Besides, under “contact time 5 min”, the “% Disinfected” value was determined as 100%, the “Legionella pneumophila (Ave MFU/ml)” value was 0 MFU/ml and the “Legionella pneumophila Ave (MFU/dip-slide)” value is 0 MFU/dip-slide. For the same substance, where the note is “contact time 10 min”, the “% Disinfected” value turned out to be 100%, the “Legionella pneumophila (Ave MFU/ml)” value is listed as 0 MFU/ml and the “Legionella pneumophila Ave (MFU/dip-slide)” value is given as 0 MFU/dip-slide.

The values are drawn from US7901932B2, “Methods and compositions for rapidly detecting and quantifying viable Legionella” (dated 2011).
